{
  "source": "paper PMC10213629",
  "tested_on": "CrcA (PA1677) + Hfq",
  "assay": "grating-coupled interferometry",
  "settings": "preformed Hfq/amiE6ARN (1:1) complex as analyte on immobilized CrcA, no binding of the complex to CrcA; GCI (Creoptix WAVEdelta, 4PCP chip): 10 mM Tris/HCl pH 8, 10 mM KCl, 40 mM NaCl, 1 mM MgCl2, 25 C; recombinant protein; protein details: His-tag removed by 3C cleavage",
  "note": "Construct, isoform or probe ends are uncertain for at least one entry. No signal at the amounts used counts as a negative.",
  "data": [
    {"sequence": "AAAAAUAACAACAAGAGG [amiE6ARN]", "values": [
      {"measurement": "binding result", "value": "no binding"}
    ]}
  ]
}
